Results of unrelated studies side by side (data: NIAID ChemDB).

Common to all: host cell toxicity; cell line: CEM; measure: CC50

Conditions beyond the fields shown may differ between rows. CCn is the concentration with n% toxicity to the cells. Blank or dashed fields: not listed here.

structure	method	result
Oc1cccc(C2SCc3nc4ccccc4n32)c1	-	>127 µM
Cc1ccc(C)c(C(C(N)=O)S(=O)(=O)c2cccc[n+]2[O-])c1	cell count	≥100 µg/mL
CC(C)CCCCCOP(=O)(COCCn1cnc2c(Cl)nc(N)nc21)OCCCCCC(C)C	-	>4 µg/mL
Cc1ccc([N+](=O)[O-])cc1CS(=O)(=O)c1cccc[n+]1[O-]	cell count	57 µg/mL
CCCCCCC(=O)Oc1ccc(COP(=O)(OCc2ccc(OC(=O)CCCCCC)cc2)OP(=O)([O-])OC[C@@H]2CC[C@H](n3ccc(=O)[nH]c3=O)O2)cc1	-	124 µM
C=CCN(C(=O)[C@H](Cc1ccccc1)NC(=O)OC(C)(C)C)C(C)C(=O)N[C@H](C(=O)N[C@H](C(=O)OC)C(C)C)[C@@H](C)CC	-	>10 µg/mL
CN[C@H](CC(C)C)C(=O)N[C@H]1C(=O)N[C@@H](CC(N)=O)C(=O)N[C@H]2C(=O)N[C@H]3C(=O)N[C@H](C(=O)N[C@H](C(=O)O)c4cc(O)cc(O)c4-c4cc3ccc4O)[C@H](O)c3ccc(c(Cl)c3)Oc3cc2cc(c3O[C@@H]2O[C@H](CO)[C@@H](O)[C@H](O)[C@H]2O[C@H]2C[C@](C)(N)[C@H](O)[C@H](C)O2)Oc2ccc(cc2Cl)[C@H]1O	-	>100 µM
O=S(=O)(Cc1c(Cl)c(Cl)c(Cl)c(Cl)c1Cl)c1cccc[n+]1[O-]	cell count	1.2 µg/mL
O=c1ccn([C@H]2CC[C@@H](CO)O2)c(=O)[nH]1	-	>250 µM
Cc1ccccc1C(C#N)S(=O)c1cccc[n+]1[O-]	cell count	0.67 µg/mL
CC[C@H](C)[C@H](NC(=O)CN(CC(Cl)CCl)C(=O)[C@H](Cc1ccccc1)NC(=O)OC(C)(C)C)C(=O)N[C@H](C(=O)OC)C(C)C	-	>33.3 µg/mL
CC(=O)N[C@@H](Cc1ccccc1)C(=O)N[C@H](C(=O)N[C@@H](CC(C)C)[C@@H](O)CC(=O)N[C@@H](CC(C)C)C(=O)N[C@@H](Cc1ccccc1)C(N)=O)C(C)C	-	>138 µM
Cc1cc(F)cc(CNC(=O)Cc2c(C)nc(C)[nH]c2=O)c1	MTT	>110 µM
CCC(c1cc(C)ccc1C)S(=O)(=O)c1cccc[n+]1[O-]	cell count	80 µg/mL
Cc1ccnc2c1N(C(=O)CNNC(=O)c1ccncc1)C(=O)c1cccnc1N2C1CC1	XTT	>1000 µM
O=[N+]([O-])c1cc(CS(=O)(=O)c2cccc[n+]2[O-])cc([N+](=O)[O-])c1	cell count	4.4 µg/mL
CCCCCCCCCC(=O)Nc1nc(N)nc2c1ncn2[C@H]1CO[C@@H](COP(=O)(N[C@@H](C)C(=O)OCC)Oc2ccccc2)O1	-	13 µM
Cc1ccc(C)c(C(Sc2cccc[n+]2[O-])c2ccccc2)c1	cell count	34 µg/mL
N#Cc1cccc(C2SCc3nc4ccccc4n32)c1	-	38.3 µM
COc1nc(N[C@H]2OC[C@@H](O)[C@H](O)[C@H]2O)c(N=C[C@@H](O)[C@H](O)[C@H](O)CO)c(=O)n1C	XTT	>580 µM
COc1ccc(CS(=O)(=O)c2cccc[n+]2[O-])cc1	cell count	31 µg/mL
CCCC(=O)Nc1nc(N)nc2c1ncn2[C@H]1CO[C@@H](COP(=O)(N[C@@H](C)C(=O)OCC)Oc2ccccc2)O1	-	>100 µM
COc1ccc(CS(=O)(=O)c2cccc[n+]2[O-])cc1OC	cell count	41 µg/mL
C=CCN(CC(=O)N[C@H](C(=O)N[C@H](C(=O)OC)C(C)C)[C@@H](C)CC)C(=O)[C@H](Cc1ccccc1)NC(=O)[C@H](C)NC(=O)[C@H](C)NC(=O)[C@H](CO)NC(=O)OC(C)(C)C	-	>100 µg/mL
CCCCCCCCCCCC(Sc1cccc[n+]1[O-])c1cc(C)ccc1C	cell count	25 µg/mL
COc1cccc(F)c1C1SCC(=O)N1c1cccc(C)c1	-	39.38 µM
Cc1cn([C@@H]2O[C@@H](CO)[C@H](O)[C@H]2O)c(=O)[nH]c1=O	-	>1000 µM
C=CCN(CC(=O)N[C@H](C(=O)N[C@H](C(=O)OC)C(C)C)[C@@H](C)CC)C(=O)[C@H](Cc1ccccc1)NC(=O)[C@H](C)NC(=O)OC(C)(C)C	-	35.7 µg/mL
Cc1ccc[n+]([O-])c1S(=O)(=O)Cc1ccccc1	cell count	28 µg/mL
CCCCCCC(=O)Oc1ccc(COP(=O)(OCc2ccc(OC(=O)CCCCCC)cc2)OP(=O)([O-])OC[C@@H]2C=C[C@H](n3ccc(=O)[nH]c3=O)O2)cc1	-	109 µM
[N-]=[N+]=N[C@H]1C[C@H](CO)O[C@@H]1n1cc(F)c(N)nc1=O	trypan blue	>100 µM
O=C(O)CNC(=O)c1ccccc1SSc1ccccc1C(=O)NCC(=O)O	-	>100 µM
COc1cc(/C=C/c2ccc3ccc(C(=O)O)c(O)c3n2)cc(O)c1O	MTT	6 µM
O=c1[nH]c(=O)n([C@@H]2CS[C@H](CO)O2)cc1/C=C/Br	-	>100 µM
N#Cc1ccccc1CS(=O)(=O)c1cccc[n+]1[O-]	cell count	15 µg/mL
Cc1nn(-c2cccc(C(F)(F)F)c2)c(C)c1C(=O)C(=O)N(C)CC(=O)Nc1cccc(F)c1	MTT	15 µM
Cc1ccc(C)c(CS(=O)c2ccc(Cl)c[n+]2[O-])c1	cell count	14 µg/mL
CSCC[C@H](NC(=O)c1ccccc1SSc1ccccc1C(=O)N[C@@H](CCSC)C(=O)O)C(=O)O	-	>100 µM
Nc1ncnc2c1ccn2CCOCP(=O)(O)O	-	>4 µg/mL
CC(NC(=O)c1ccc2c(c1)C(=O)N(CCCN1CCOCC1)C2=O)c1ccc(F)cc1F	MTT	>72.7 µM
Cc1ccc(C)c(C(Cl)S(=O)(=O)c2c(C)ccc[n+]2[O-])c1	cell count	>100 µg/mL
O=C1O[C@](C#CC2CC2)(C(F)(F)F)c2cc(Cl)ccc2N1CN1CCN(c2cccc(Cl)c2)CC1	-	>10 µM
COc1cccc(F)c1C1SCC(=O)N1c1cccc(C)n1	-	162 µM
CC[C@@H](C)[C@@H](CC(=O)O)NC(=O)c1ccccc1SSc1ccccc1C(=O)N[C@H](CC(=O)O)[C@H](C)CC	-	>100 µM
CCCCCCCCCCCCCCCC(=O)Nc1nc(N)nc2c1ncn2[C@H]1CO[C@@H](COP(=O)(N[C@@H](C)C(=O)OCC)Oc2ccccc2)O1	-	12 µM
CCC[C@@H](CC(=O)O)NC(=O)c1ccccc1SSc1ccccc1C(=O)N[C@@H](CCC)CC(=O)O	-	>100 µM
Cc1cccc(C)c1C1SCC(=O)N1c1cccc(Br)n1	-	>275 µM
CCn1cc(C(=O)O)c(=O)c2cc(F)c(N3CCN(CN4C(=O)O[C@](C#CC5CC5)(C(F)(F)F)c5cc(Cl)ccc54)CC3)c(F)c21	-	>10 µM
O=S(=O)(Cc1ccc(-c2ccccc2)cc1)c1cccc[n+]1[O-]	cell count	4.6 µg/mL
C=CCN(C(=O)[C@H](Cc1ccccc1)NC(=O)[C@H](C)NC(=O)[C@H](C)NC(=O)OC(C)(C)C)C(C)C(=O)N[C@H](C(=O)N[C@H](C(=O)OC)C(C)C)[C@@H](C)CC	-	2.9 µg/mL
COc1cccc(F)c1C1SCC(=O)N1c1cc(C)cc(C)n1	-	209 µM
CC(C)CCCCCOP(=O)(COCCn1cnc2c(N)nc(N)nc21)OCCCCCC(C)C	-	>4 µg/mL
COc1cc(CS(=O)(=O)c2cccc[n+]2[O-])cc(OC)c1OC	cell count	51 µg/mL
O=C(N[C@@H](CC1CCCCC1)C(=O)O)c1ccccc1SSc1ccccc1C(=O)N[C@@H](CC1CCCCC1)C(=O)O	-	23 µM
O=S(=O)(Cc1ccc(Cl)cc1Cl)c1cccc[n+]1[O-]	cell count	6.2 µg/mL
Nc1ncnc2c1ncn2[C@H]1C[C@@H](O)[C@H](CO)O1	-	>1000 µM
CCCCCC(NC(=O)c1ccccc1SSc1ccccc1C(=O)NC(CCCCC)C(=O)O)C(=O)O	-	62.7 µM
CCOC(=O)[C@H](C)NP(=O)(OC[C@@H]1OC[C@H](n2cnc3c(N)nc(N)nc32)O1)Oc1ccccc1	-	>100 µM
O=c1[nH]c(=O)n([C@H]2CS[C@@H](CO)O2)cc1/C=C/Br	-	>100 µM
CCCCCCCCCCCC(=O)Nc1nc(N)nc2c1ncn2[C@H]1CO[C@@H](COP(=O)(N[C@@H](C)C(=O)OCC)Oc2ccccc2)O1	-	12 µM
O=S(=O)(c1ccc(Cl)c[n+]1[O-])C(Cl)c1ccccc1	cell count	2.3 µg/mL
NC(N)=NC(=O)c1ccc(N2CCCCCC2)nc1	fluorescence	162 µM
Nc1ncnc2c1ncn2[C@@H]1O[C@@H](CO)[C@H](O)[C@H]1O	-	>1000 µM
Cc1ccnc2c1N(C(=O)CN1CCN(c3cc4c(cc3F)c(=O)c(C(=O)O)cn4C3CC3)CC1)C(=O)c1cccnc1N2C1CC1	XTT	>200 µM
Cc1ccc(C)c(CS(=O)c2cccc[n+]2[O-])c1C	cell count	1.2 µg/mL

7 of the rows above, restated:

structure | method | result
COc1ccc(CS(=O)(=O)c2cccc[n+]2[O-])cc1OC | cell count | 41 µg/mL
CCOC(=O)[C@H](C)NP(=O)(OC[C@@H]1OC[C@H](n2cnc3c(N)nc(N)nc32)O1)Oc1ccccc1 | - | >100 µM
CCCCCCCCCC(=O)Nc1nc(N)nc2c1ncn2[C@H]1CO[C@@H](COP(=O)(N[C@@H](C)C(=O)OCC)Oc2ccccc2)O1 | - | 13 µM
O=[N+]([O-])c1cc(CS(=O)(=O)c2cccc[n+]2[O-])cc([N+](=O)[O-])c1 | cell count | 4.4 µg/mL
COc1cccc(F)c1C1SCC(=O)N1c1cccc(C)c1 | - | 39.38 µM
N#Cc1cccc(C2SCc3nc4ccccc4n32)c1 | - | 38.3 µM
Oc1cccc(C2SCc3nc4ccccc4n32)c1 | - | >127 µM